## Mutational scan of HIV-1 Vif (LAI) in cells with APOBEC3G

Protein: Vif of HIV-1 LAI (a laboratory-adapted subtype B strain). Residues 12-115 were scanned and are shown below; the first letter is residue 12.
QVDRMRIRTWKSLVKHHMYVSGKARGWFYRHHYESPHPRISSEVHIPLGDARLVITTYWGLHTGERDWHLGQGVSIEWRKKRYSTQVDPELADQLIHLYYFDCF

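Pooled viruses with one designed change each in Vif went through two 72 h rounds in SupT1 cells expressing APOBEC3G. Each of three replicates was sequenced after round two and set against the merged round-one pool. Changes do not touch integrase, since the pol overlap was removed.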

Values are log2 enrichment relative to wild type (0); lower means weaker defence against APOBEC3G and poorer growth. A change reads original residue, position, new residue. The median of three replicates is given, with the replicates in brackets. Input reads are the counts in the merged round-one pool, before selection.

mutation,input reads,median log2 enrichment
V31A,537,-1.37 (-1.19 / -2.00 / -1.37)
V31C,66,0.40 (-0.22 / 3.67 / 0.40)
V31D,2954,-0.95 (-0.95 / 0.11 / -1.11)
V31E,69,1.47 (-0.28 / 1.47 / 5.41)
V31F,1590,-3.22 (-1.99 / -3.67 / -3.22)
V31G,971,1.48 (2.85 / 1.48 / -0.25)
V31H,603,-1.36 (-1.36 / 1.26 / -1.74)
V31I,202,-1.20 (-0.75 / -3.13 / -1.20)
V31K,1710,-2.51 (-2.40 / -3.57 / -2.51)
V31N,629,-0.73 (-0.80 / -0.73 / 2.78)
V31P,351,0.78 (0.78 / -3.58 / 1.05)
V31Q,705,-2.73 (-3.33 / 0.26 / -2.73)
V31R,849,-0.70 (2.97 / -1.96 / -0.70)
V31T,69,1.68 (1.68 / 4.37 / 0.61)
V31W,1252,-1.39 (-1.39 / -3.22 / 2.58)
S32A,253,-0.37 (-0.37 / -2.20 / 3.46)
S32D,928,0.68 (0.85 / 0.68 / -2.29)
S32E,1250,-2.29 (-2.08 / -4.14 / -2.29)
S32F,642,1.22 (2.48 / 1.22 / -0.85)
S32H,29,0.95 (0.95 / -0.77 / 4.13)
S32I,211,-4.75 (-3.48 / -4.75 / -5.51)
S32K,24,1.21 (1.21 / 4.49 / 0.77)
S32L,545,-0.82 (-0.82 / 1.14 / -1.10)
S32N,61,-3.28 (-3.28 / -2.48 / -3.73)
S32P,112,1.02 (0.09 / 4.22 / 1.02)
S32Q,57,-0.02 (-0.02 / 4.18 / -0.82)
S32R,207,-2.02 (-2.72 / 1.63 / -2.02)
S32T,385,-3.57 (-2.76 / -3.85 / -3.57)
S32W,54,0.35 (0.35 / 4.41 / -1.23)
G33A,22,-0.46 (0.90 / -0.46 / -0.77)
G33D,556,-3.72 (-3.72 / -4.46 / -2.34)
G33E,2109,-2.43 (-2.43 / -1.53 / -2.84)
G33F,341,-2.99 (-3.02 / -2.99 / -1.15)
G33H,613,-2.43 (-2.43 / -4.60 / -1.24)
G33I,368,-3.62 (-3.62 / -4.05 / -3.58)
G33K,10989,-2.03 (-2.03 / -2.68 / -0.88)
G33L,1151,-1.84 (0.71 / -3.41 / -1.84)
G33N,449,-1.98 (-1.98 / -2.57 / -1.25)
G33P,300,-1.57 (-1.12 / -2.62 / -1.57)
G33Q,2098,-2.18 (-2.38 / -1.55 / -2.18)
G33R,361,-0.36 (-0.36 / 0.49 / -1.71)
G33T,756,-1.04 (-1.04 / 0.43 / -2.29)
G33V,1446,-0.77 (-0.77 / -1.60 / -0.46)
G33W,1353,-1.21 (-2.09 / -1.13 / -1.21)
G33Y,101,0.31 (0.31 / 3.80 / -0.83)
K34A,47,1.15 (1.15 / -1.03 / 5.80)
K34C,473,-3.40 (-3.44 / -3.40 / -2.44)
K34E,67,0.03 (-0.63 / 4.09 / 0.03)
K34H,58,0.58 (0.23 / 4.38 / 0.58)
K34N,558,-0.93 (-0.93 / -1.20 / 0.37)
K34Q,422,-1.31 (-0.30 / -2.07 / -1.31)
K34R,286,3.15 (-0.32 / 3.15 / 4.11)
K34S,692,-2.48 (-2.28 / -3.94 / -2.48)
K34T,837,-2.02 (-1.05 / -3.05 / -2.02)
K34V,416,-3.33 (-3.26 / -3.68 / -3.33)
K34W,529,-3.24 (-3.24 / -2.53 / -4.53)
K34Y,347,-1.90 (-1.90 / -3.41 / -0.57)
A35C,775,-1.75 (-1.93 / 0.02 / -1.75)
A35D,823,0.98 (-0.16 / 0.98 / 1.46)
A35E,129,1.16 (0.82 / 1.16 / 5.65)
A35F,450,-3.02 (-3.02 / -3.24 / -1.76)
A35G,32,-0.81 (-0.81 / -1.60 / 1.36)
A35H,112,-0.81 (-0.73 / -2.29 / -0.81)
A35I,1174,-2.01 (-2.01 / -2.66 / -1.67)
A35K,222,0.98 (0.98 / -1.11 / 5.90)
A35L,507,-1.23 (-1.23 / 0.16 / -2.99)
A35N,1080,-1.01 (-0.68 / -1.96 / -1.01)
A35P,161,-0.88 (-1.01 / -0.88 / 0.58)
A35Q,604,-1.86 (-1.86 / -3.87 / -1.21)
A35R,396,-1.20 (-3.19 / -0.38 / -1.20)
A35S,464,-0.87 (-0.87 / -1.97 / -0.45)
A35T,892,-2.22 (-2.22 / -5.28 / -2.08)
A35Y,1231,-0.98 (-0.98 / -3.31 / 3.02)
R36A,58,0.88 (0.88 / 4.31 / 0.69)
R36C,376,-3.09 (-3.09 / -2.50 / -3.58)
R36D,190,2.41 (0.92 / 3.92 / 2.41)
R36E,74,-0.75 (-0.75 / 3.17 / -1.24)
R36F,436,-0.99 (-0.83 / -2.52 / -0.99)
R36G,1025,-1.11 (-1.11 / 0.18 / -2.41)
R36H,992,-1.21 (2.23 / -1.21 / -1.90)
R36I,509,-1.10 (-0.50 / -2.48 / -1.10)
R36K,1879,-1.91 (-1.91 / -3.40 / -0.47)
R36L,331,-2.91 (-2.91 / -4.04 / -2.12)
R36N,69,-2.03 (0.24 / -2.03 / -3.95)
R36P,483,-1.39 (-0.70 / -2.06 / -1.39)
R36Q,201,2.58 (4.24 / 2.58 / 0.13)
R36S,238,0.49 (0.49 / 2.03 / 0.34)
R36T,35,0.48 (2.94 / -0.43 / 0.48)
R36W,39,0.16 (0.16 / -0.76 / 0.32)

Extract of 10 entries:

mutation	input reads	median log2 enrichment
S32D	928	0.68 (0.85 / 0.68 / -2.29)
R36I	509	-1.10 (-0.50 / -2.48 / -1.10)
V31E	69	1.47 (-0.28 / 1.47 / 5.41)
G33Y	101	0.31 (0.31 / 3.80 / -0.83)
V31I	202	-1.20 (-0.75 / -3.13 / -1.20)
G33Q	2098	-2.18 (-2.38 / -1.55 / -2.18)
A35N	1080	-1.01 (-0.68 / -1.96 / -1.01)
R36W	39	0.16 (0.16 / -0.76 / 0.32)
A35D	823	0.98 (-0.16 / 0.98 / 1.46)
K34E	67	0.03 (-0.63 / 4.09 / 0.03)

Positive scores are uncertain; some enriched variants did not exclude APOBEC3G in a separate test. The scan is noisy: the rank correlation of replicates is about 0.4 to 0.65, and variants with under about 50 input reads tend to read too high. Some changes are missing from the data or left out.

Reference: Langley et al. 2025, preprint, doi:10.1101/2025.10.20.683452.